Where two headings read alike, the source gives them in different places.
Test system: coronal proteins on NPs
Set-up: species or system mouse
Conditions: for V5 Sera_Nanoparticles Quantitative Value (Normalized Total Spectra): 20:1 NP:sera, centrifuged and washed; for V5 Sera Alone (Control) Quantitative Value (Normalized Total Spectra): IAV day 5 (V5) mouse sera alone
[1] = HBPE-NPs incubated 1 h with IAV day 5 (V5) mouse sera
[2] = HBPE-NPs incubated with IAV day 5 (V5) mouse sera 1 h
[3] = no NPs, mass spectrometry protein identification

Sequences of proteins named here, by UniProt entry; tags and fusion partners are left off. A change or cut given only in a name is not applied to a line headed by its entry.
UniProt Q9EQ21: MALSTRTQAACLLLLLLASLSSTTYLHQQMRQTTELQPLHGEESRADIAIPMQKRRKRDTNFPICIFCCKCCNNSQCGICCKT

Alpha-2-antiplasmin
V5 Sera_Nanoparticles Quantitative Value (Normalized Total Spectra) [1]: 5.4396 | V5 Sera Alone (Control) Quantitative Value (Normalized Total Spectra) (no NPs (sera-only control)): 1.8505

Ankyrin-1
V5 Sera_Nanoparticles Quantitative Value (Normalized Total Spectra) [1]: 25.022 | V5 Sera Alone (Control) Quantitative Value (Normalized Total Spectra) (no NPs (sera-only control)): 2.7757

Ankyrin-2
V5 Sera_Nanoparticles Quantitative Value (Normalized Total Spectra) [1]: 1.0879 | V5 Sera Alone (Control) Quantitative Value (Normalized Total Spectra) (no NPs (sera-only control)): 0

Ankyrin-3
V5 Sera_Nanoparticles Quantitative Value (Normalized Total Spectra) [1]: 1.0879 | V5 Sera Alone (Control) Quantitative Value (Normalized Total Spectra) (no NPs (sera-only control)): 0

Apolipoprotein A-II
V5 Sera_Nanoparticles Quantitative Value (Normalized Total Spectra) [1]: 6.5275 | V5 Sera Alone (Control) Quantitative Value (Normalized Total Spectra) (no NPs (sera-only control)): 14.804

Apolipoprotein B-100
V5 Sera_Nanoparticles Quantitative Value (Normalized Total Spectra) [1]: 21.758 | V5 Sera Alone (Control) Quantitative Value (Normalized Total Spectra) (no NPs (sera-only control)): 19.43

Beta-2-microglobulin
V5 Sera_Nanoparticles Quantitative Value (Normalized Total Spectra) [1]: 5.4396 | V5 Sera Alone (Control) Quantitative Value (Normalized Total Spectra) (no NPs (sera-only control)): 5.5514

Beta-actin-like protein 2
V5 Sera_Nanoparticles Quantitative Value (Normalized Total Spectra) [1]: 9.7913 | V5 Sera Alone (Control) Quantitative Value (Normalized Total Spectra) (no NPs (sera-only control)): 4.6261

Carbonic anhydrase 2
V5 Sera_Nanoparticles Quantitative Value (Normalized Total Spectra) [1]: 3.2638 | V5 Sera Alone (Control) Quantitative Value (Normalized Total Spectra) (no NPs (sera-only control)): 2.7757

Cathelicidin antimicrobial peptide (ISRLAGLLRKGGEKIGEKLKKIGQKIKNFFQKLVPQPE; UniProt P51437 135-172, looked up)
V5 Sera_Nanoparticles Quantitative Value (Normalized Total Spectra) [2]: 0 | V5 Sera Alone (Control) Quantitative Value (Normalized Total Spectra) [3]: 3.7009

Cilia- and flagella-associated protein 221
V5 Sera_Nanoparticles Quantitative Value (Normalized Total Spectra) [2]: 0 | V5 Sera Alone (Control) Quantitative Value (Normalized Total Spectra) [3]: 0.9252

Cluster of Ankyrin-1
V5 Sera_Nanoparticles Quantitative Value (Normalized Total Spectra) [1]: 25.022 | V5 Sera Alone (Control) Quantitative Value (Normalized Total Spectra) (no NPs (sera-only control)): 2.7757

Cluster of Filamin-A
V5 Sera_Nanoparticles Quantitative Value (Normalized Total Spectra) [1]: 4.3517 | V5 Sera Alone (Control) Quantitative Value (Normalized Total Spectra) (no NPs (sera-only control)): 15.729

Cluster of Heat shock cognate 71 kDa protein
V5 Sera_Nanoparticles Quantitative Value (Normalized Total Spectra) [1]: 8.7034 | V5 Sera Alone (Control) Quantitative Value (Normalized Total Spectra) (no NPs (sera-only control)): 2.7757

Cluster of Myosin-9
V5 Sera_Nanoparticles Quantitative Value (Normalized Total Spectra) [1]: 1.0879 | V5 Sera Alone (Control) Quantitative Value (Normalized Total Spectra) (no NPs (sera-only control)): 4.6261

Cluster of Tubulin beta-4B chain
V5 Sera_Nanoparticles Quantitative Value (Normalized Total Spectra) [2]: 0 | V5 Sera Alone (Control) Quantitative Value (Normalized Total Spectra) [3]: 2.7757

Coagulation factor V
V5 Sera_Nanoparticles Quantitative Value (Normalized Total Spectra) [1]: 6.5275 | V5 Sera Alone (Control) Quantitative Value (Normalized Total Spectra) (no NPs (sera-only control)): 4.6261

Complement C4-B
V5 Sera_Nanoparticles Quantitative Value (Normalized Total Spectra) [1]: 18.495 | V5 Sera Alone (Control) Quantitative Value (Normalized Total Spectra) (no NPs (sera-only control)): 36.084

Desmoplakin
V5 Sera_Nanoparticles Quantitative Value (Normalized Total Spectra) [1]: 0 | V5 Sera Alone (Control) Quantitative Value (Normalized Total Spectra) (no NPs (sera-only control)): 0.9252

Disks large homolog 5
V5 Sera_Nanoparticles Quantitative Value (Normalized Total Spectra) [1]: 1.0879 | V5 Sera Alone (Control) Quantitative Value (Normalized Total Spectra) (no NPs (sera-only control)): 0

E3 ubiquitin-protein ligase MIB1
V5 Sera_Nanoparticles Quantitative Value (Normalized Total Spectra) [2]: 0 | V5 Sera Alone (Control) Quantitative Value (Normalized Total Spectra) [3]: 0.9252

Endoplasmic reticulum chaperone BiP
V5 Sera_Nanoparticles Quantitative Value (Normalized Total Spectra) [1]: 2.1758 | V5 Sera Alone (Control) Quantitative Value (Normalized Total Spectra) (no NPs (sera-only control)): 0.9252

Epidermal growth factor receptor
V5 Sera_Nanoparticles Quantitative Value (Normalized Total Spectra) [1]: 4.3517 | V5 Sera Alone (Control) Quantitative Value (Normalized Total Spectra) (no NPs (sera-only control)): 6.4766

Fibronectin
V5 Sera_Nanoparticles Quantitative Value (Normalized Total Spectra) [1]: 35.901 | V5 Sera Alone (Control) Quantitative Value (Normalized Total Spectra) (no NPs (sera-only control)): 33.308

Filamin-A
V5 Sera_Nanoparticles Quantitative Value (Normalized Total Spectra) [1]: 4.3517 | V5 Sera Alone (Control) Quantitative Value (Normalized Total Spectra) (no NPs (sera-only control)): 15.729

Filamin-B
V5 Sera_Nanoparticles Quantitative Value (Normalized Total Spectra) [1]: 0 | V5 Sera Alone (Control) Quantitative Value (Normalized Total Spectra) (no NPs (sera-only control)): 1.8505

Filamin-C
V5 Sera_Nanoparticles Quantitative Value (Normalized Total Spectra) [1]: 0 | V5 Sera Alone (Control) Quantitative Value (Normalized Total Spectra) (no NPs (sera-only control)): 2.7757

Heat shock cognate 71 kDa protein
V5 Sera_Nanoparticles Quantitative Value (Normalized Total Spectra) [1]: 7.6154 | V5 Sera Alone (Control) Quantitative Value (Normalized Total Spectra) (no NPs (sera-only control)): 2.7757

Hemoglobin subunit alpha
V5 Sera_Nanoparticles Quantitative Value (Normalized Total Spectra) [1]: 41.341 | V5 Sera Alone (Control) Quantitative Value (Normalized Total Spectra) (no NPs (sera-only control)): 28.682

Hemoglobin subunit beta-2
V5 Sera_Nanoparticles Quantitative Value (Normalized Total Spectra) [1]: 54.396 | V5 Sera Alone (Control) Quantitative Value (Normalized Total Spectra) (no NPs (sera-only control)): 24.981

Heparin cofactor 2
V5 Sera_Nanoparticles Quantitative Value (Normalized Total Spectra) [1]: 2.1758 | V5 Sera Alone (Control) Quantitative Value (Normalized Total Spectra) (no NPs (sera-only control)): 1.8505

Hepcidin (DTNFPICIFCCKCCNNSQCGICCKT; Hepcidin; UniProt Q9EQ21 59-83, looked up)
V5 Sera_Nanoparticles Quantitative Value (Normalized Total Spectra) [1]: 1.0879 | V5 Sera Alone (Control) Quantitative Value (Normalized Total Spectra) (no NPs (sera-only control)): 0.9252

Immunoglobulin kappa constant
V5 Sera_Nanoparticles Quantitative Value (Normalized Total Spectra) [1]: 7.6154 | V5 Sera Alone (Control) Quantitative Value (Normalized Total Spectra) (no NPs (sera-only control)): 11.103

Myosin-9
V5 Sera_Nanoparticles Quantitative Value (Normalized Total Spectra) [1]: 1.0879 | V5 Sera Alone (Control) Quantitative Value (Normalized Total Spectra) (no NPs (sera-only control)): 4.6261

Myosin-11
V5 Sera_Nanoparticles Quantitative Value (Normalized Total Spectra) [1]: 1.0879 | V5 Sera Alone (Control) Quantitative Value (Normalized Total Spectra) (no NPs (sera-only control)): 1.8505

Peptidyl-prolyl cis-trans isomerase A
V5 Sera_Nanoparticles Quantitative Value (Normalized Total Spectra) [1]: 1.0879 | V5 Sera Alone (Control) Quantitative Value (Normalized Total Spectra) (no NPs (sera-only control)): 0

Pericentrin
V5 Sera_Nanoparticles Quantitative Value (Normalized Total Spectra) [1]: 0 | V5 Sera Alone (Control) Quantitative Value (Normalized Total Spectra) (no NPs (sera-only control)): 0.9252

Plasma kallikrein
V5 Sera_Nanoparticles Quantitative Value (Normalized Total Spectra) [1]: 15.231 | V5 Sera Alone (Control) Quantitative Value (Normalized Total Spectra) (no NPs (sera-only control)): 14.804

Protein PRRC2B
V5 Sera_Nanoparticles Quantitative Value (Normalized Total Spectra) [1]: 1.0879 | V5 Sera Alone (Control) Quantitative Value (Normalized Total Spectra) (no NPs (sera-only control)): 0.9252

Pyruvate kinase PKM
V5 Sera_Nanoparticles Quantitative Value (Normalized Total Spectra) [2]: 0 | V5 Sera Alone (Control) Quantitative Value (Normalized Total Spectra) [3]: 2.7757

Retinol-binding protein 4
V5 Sera_Nanoparticles Quantitative Value (Normalized Total Spectra) [1]: 2.1758 | V5 Sera Alone (Control) Quantitative Value (Normalized Total Spectra) (no NPs (sera-only control)): 2.7757

SPARC-like protein 1
V5 Sera_Nanoparticles Quantitative Value (Normalized Total Spectra) [2]: 0 | V5 Sera Alone (Control) Quantitative Value (Normalized Total Spectra) [3]: 0.9252

Serotransferrin
V5 Sera_Nanoparticles Quantitative Value (Normalized Total Spectra) [1]: 96.825 | V5 Sera Alone (Control) Quantitative Value (Normalized Total Spectra) (no NPs (sera-only control)): 136.93

Spectrin alpha chain, erythrocytic 1
V5 Sera_Nanoparticles Quantitative Value (Normalized Total Spectra) [1]: 22.846 | V5 Sera Alone (Control) Quantitative Value (Normalized Total Spectra) (no NPs (sera-only control)): 2.7757

Spectrin alpha chain, non-erythrocytic 1
V5 Sera_Nanoparticles Quantitative Value (Normalized Total Spectra) [1]: 1.0879 | V5 Sera Alone (Control) Quantitative Value (Normalized Total Spectra) (no NPs (sera-only control)): 0.9252

Spectrin beta chain, erythrocytic
V5 Sera_Nanoparticles Quantitative Value (Normalized Total Spectra) [1]: 31.55 | V5 Sera Alone (Control) Quantitative Value (Normalized Total Spectra) (no NPs (sera-only control)): 3.7009

Superoxide dismutase [Superoxide dismutase [Cu—Zn]]
V5 Sera_Nanoparticles Quantitative Value (Normalized Total Spectra) [1]: 1.0879 | V5 Sera Alone (Control) Quantitative Value (Normalized Total Spectra) (no NPs (sera-only control)): 0.9252

T-lymphoma invasion and metastasis-inducing protein 1
V5 Sera_Nanoparticles Quantitative Value (Normalized Total Spectra) [1]: 1.0879 | V5 Sera Alone (Control) Quantitative Value (Normalized Total Spectra) (no NPs (sera-only control)): 0

Talin-1
V5 Sera_Nanoparticles Quantitative Value (Normalized Total Spectra) [1]: 6.5275 | V5 Sera Alone (Control) Quantitative Value (Normalized Total Spectra) (no NPs (sera-only control)): 9.2523

Testisin
V5 Sera_Nanoparticles Quantitative Value (Normalized Total Spectra) [1]: 1.0879 | V5 Sera Alone (Control) Quantitative Value (Normalized Total Spectra) (no NPs (sera-only control)): 0

Thrombospondin-1
V5 Sera_Nanoparticles Quantitative Value (Normalized Total Spectra) [1]: 44.605 | V5 Sera Alone (Control) Quantitative Value (Normalized Total Spectra) (no NPs (sera-only control)): 24.981

Transitional endoplasmic reticulum ATPase
V5 Sera_Nanoparticles Quantitative Value (Normalized Total Spectra) [1]: 3.2638 | V5 Sera Alone (Control) Quantitative Value (Normalized Total Spectra) (no NPs (sera-only control)): 0.9252

Transmembrane protein KIAA1109
V5 Sera_Nanoparticles Quantitative Value (Normalized Total Spectra) [2]: 0 | V5 Sera Alone (Control) Quantitative Value (Normalized Total Spectra) [3]: 0.9252

Transthyretin
V5 Sera_Nanoparticles Quantitative Value (Normalized Total Spectra) [1]: 3.2638 | V5 Sera Alone (Control) Quantitative Value (Normalized Total Spectra) (no NPs (sera-only control)): 7.4018

Tubulin alpha-1B chain
V5 Sera_Nanoparticles Quantitative Value (Normalized Total Spectra) [1]: 1.0879 | V5 Sera Alone (Control) Quantitative Value (Normalized Total Spectra) (no NPs (sera-only control)): 4.6261

Tubulin alpha-4A chain
V5 Sera_Nanoparticles Quantitative Value (Normalized Total Spectra) [1]: 2.1758 | V5 Sera Alone (Control) Quantitative Value (Normalized Total Spectra) (no NPs (sera-only control)): 3.7009

Tubulin beta-2A chain
V5 Sera_Nanoparticles Quantitative Value (Normalized Total Spectra) [2]: 0 | V5 Sera Alone (Control) Quantitative Value (Normalized Total Spectra) [3]: 1.8505

Tubulin beta-4B chain
V5 Sera_Nanoparticles Quantitative Value (Normalized Total Spectra) [2]: 0 | V5 Sera Alone (Control) Quantitative Value (Normalized Total Spectra) [3]: 2.7757

Vitamin K-dependent protein S
V5 Sera_Nanoparticles Quantitative Value (Normalized Total Spectra) [1]: 2.1758 | V5 Sera Alone (Control) Quantitative Value (Normalized Total Spectra) (no NPs (sera-only control)): 0

von Willebrand factor
V5 Sera_Nanoparticles Quantitative Value (Normalized Total Spectra) [1]: 1.0879 | V5 Sera Alone (Control) Quantitative Value (Normalized Total Spectra) (no NPs (sera-only control)): 0.9252

Source: patent US20240122867A1, “CORONAL PROTEIN-COATED NANOPARTICLES AND USES THEREOF” (UNIVERSITY OF CENTRAL FLORIDA RESEARCH FOUNDATION, INC., priority 2021, published 2024)
